# Reference: PubChem BioAssay AID1258 (University of Pittsburgh Molecular Library Screening Center, 2008)
# Only a part is listed here, and it is no random draw. Calls of active or inactive are those of the source.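 Rule for the calls: active = inhibition above about 50% in both repeat tests (limit read from the data); inconclusive = one repeat under the set limit, the other over it; inactive = both repeats under the set limit.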
# Assay: antileishmanial activity against promastigotes – 1 µM repeat of primary hits, confirmation (AID 1258)
# Conditions: L. major promastigote growth, resazurin fluorescence, 48 h; at 1 µM; active compounds read high
# How it was run: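 System: Leishmania major promastigotes, whole-parasite viability assay; Quantity: 5,000 promastigotes per well; Buffer or medium: medium 199 plus 10% heat-inactivated FBS; Compound: 1 µM single concentration; Incubation: 44 h compound exposure, 4 h dye incubation, 28 °C; Read-out: promastigote viability inhibition; Controls: DMSO high/low controls plus tamoxifen reference.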
row,Structure (SMILES),inhibition
1,O=[N+]([O-])c1cc([N+](=O)[O-])c(NCC2CCS(=O)(=O)C2)c([N+](=O)[O-])c1 (stereo unspecified),inactive: -1.08%
